Anti-infective test results gathered from many reports (values: NIAID ChemDB through PubChem).

Common to all: cytotoxicity tests; endpoint: CC50

Neighbouring rows are from separate reports.

| SMILES | cell line | method | value |
|---|---|---|---|
| Nc1ncnc2c([C@H]3CC[C@@H](CCl)O3)[nH]nc12 | PRK/E6SM | - | >400 µg/mL |
| Fc1cccc(CCNC(=S)Nc2ccc(C(F)(F)F)cn2)c1 | HUMAN SPERM | - | >500 µM |
| CC1(C)C2CCC(N3C[C@H](O)[C@@H](O)[C@H](O)[C@H]3CO)C1C2 | HepG2 2.2.15 | - | 800 µM |
| O=c1[nH]cnc2c1ncn2[C@@H]1O[C@@H](CO)C[C@@H]1F | PBM | - | >100 µM |
| COC(=O)N[C@H](C(=O)N1CCC[C@H]1c1ncc(-c2ccc(-c3ccc(-c4cnc([C@@H]5CCCN5C(=O)[C@@H](NC(=O)OC)C(C)C)[nH]4)cc3)cc2)[nH]1)C(C)C | CAKI-1 | ATP | 25.5 µM |
| Cc1cc(=O)c2ccc(N=C=S)cc2o1 | CEM-GFP | MTT | 10.23 µM |
| CCOC(=O)C(CCSC[C@H]1O[C@@H](n2ccc3c(N)ncnc32)[C@H](O)[C@@H]1O)NC(C)=O | PRK/E6SM | - | 400 µg/mL |
| COCCCCCCCCCN1C[C@H](O)[C@@H](O)[C@H](O)[C@H]1CO | HepG2 2.2.15 | - | >2000 µM |
| Nc1nc(=O)n([C@H]2CO[C@@H](CO)S2)cc1F | CBMC | - | >500 µM |
| Fc1cccc(CCNC(=S)Nc2ccc(Br)cn2)c1 | HUMAN SPERM | - | >500 µM |
| CC(=O)NS(=O)(=O)c1ccc(NC(=O)CCC[Se][Se]CCCC(=O)Nc2ccc(S(=O)(=O)NC(C)=O)cc2)cc1 | A549 | MTT | 234 µg/mL |
| Nc1nc(N)c2ncn([C@H]3CO[C@@H](CO)O3)c2n1 | 2.2.15 | - | 2100 µM |
| C[C@H](Cn1cnc2c(N)nc(N)nc21)OCP(=O)(O)O | HSB-2 | - | >300 µM |
| Nc1ccn(C[C@@H](CO)OCP(=O)(O)O)c(=O)n1 | BCBL-1 | - | 95 µg/mL |
| CCCCCCCCCCCCCCCCCCCCCCSC[C@H](O)COP(=O)(O)C(=O)O | MRC-5 | - | 383 µM |
| CC(C)CN(C[C@@H](O)[C@H](Cc1cc(F)cc(F)c1)NC(=O)O[C@H]1CCO[C@H]2OCC[C@H]21)S(=O)(=O)c1ccc2nc(NC(C)C)sc2c1 | HKBMM | MTT | >100 µM |
| CC(/C=C/C=C(\C)CC(=O)O)=C\C=C\C=C(C)\C=C\C(C)=C(/C)C(=O)O | BJ | ATP | >26 µM |
| Cc1cn([C@H]2C[C@H](N=[N+]=[N-])[C@@H](COP(=O)(O)OCc3ccc(C(=O)OC(C)(C)C)cc3)O2)c(=O)[nH]c1=O | JM | MTT | 10 µM |
| Cc1ccc(S(=O)(=O)Nc2ccccc2[Se][Se]c2ccccc2NS(=O)(=O)c2ccc(C)cc2)cc1 | A549 | MTT | 10 µg/mL |
| CCCCC1CN(S(=O)(=O)C2CCOCC2)CCC12CCN(C1(C)CCN(C(=O)c3c(C)ncnc3C)CC1)CC2 | CEM-R5 | - | 0.022 µM |
| Cc1cn([C@H]2C[C@H](N=[N+]=[N-])[C@@H](CO)O2)c(=O)[nH]c1=O | A3.01 | - | >200 µM |
| C[C@@H]1C2CCC[C@@H]3CCC4(C)OO[C@@]23[C@H](O[C@H]1OC(=O)CCC(=O)NCCCCCCCCNC(=O)CCC(=O)O[C@@H]1O[C@@H]2OC3(C)CC[C@H]5CCCC([C@H]1C)[C@]52OO3)O4 | CCRF-CEM | resazurin | 2.94 µM |
| CC(C)Nc1nc2nc3cc(Cl)c(Cl)cc3cc2n1[C@@H]1O[C@H](CO)[C@@H](O)[C@H]1O | KB | - | 90 µM |
| Cc1nc2cccnc2n1C1C[C@H]2CC[C@H](C1)N2CC[C@H](C(=O)NCc1ccc(F)cc1)c1ccccc1 | CHO | - | 0.0144 µM |
| O=C(O)P(=O)(O)O | MRC-5 | - | >1000 µM |
| O=C(Nc1c(F)cccc1F)NC1N=C(c2ccccc2)c2ccccc2NC1=O | HEP-2 | - | 9.4 µM |
| NS(=O)(=O)c1ccc(NC(=O)c2ccccc2[Se][Se]c2ccccc2C(=O)Nc2ccc(S(N)(=O)=O)cc2)cc1 | A549 | MTT | 60 µg/mL |
| CC(C)(C)CCCCCCCN1C[C@H](O)[C@@H](O)[C@H](O)[C@H]1CO | HepG2 2.2.15 | - | 600 µM |
| CCOC(=O)c1ccc(COP(=O)(OCc2ccc(C(=O)OCC)cc2)OC[C@H]2O[C@@H](n3cc(C)c(=O)[nH]c3=O)C[C@@H]2N=[N+]=[N-])cc1 | JM | MTT | 200 µM |
| S=C(NCCC1=CCCCC1)Nc1ccccn1 | HUMAN SPERM | - | >500 µM |
| O=c1[nH]c(=O)n([C@H]2O[C@@H](CO)C[C@H]2F)cc1Br | PBM | - | >100 µM |
| O=c1[nH]c(=O)n([C@@H]2O[C@H](CO)[C@@H](O)[C@@H]2O)cc1/C=C/Br | HSB-2 | - | >75 µM |
| CC(C)OC(=O)C(N)CCSC[C@H]1O[C@@H](n2ccc3c(N)ncnc32)[C@H](O)[C@@H]1O | PRK/E6SM | - | 40 µg/mL |
| S=C(NCCc1ccccc1)Nc1ccc(Br)cn1 | HUMAN SPERM | - | 361 µM |
| Cc1c(N)nc([C@H](CC(N)=O)NC[C@H](N)C(N)=O)nc1C(=O)N[C@H](C(=O)N[C@H](C)[C@@H](O)[C@H](C)C(=O)N[C@H](C(=O)NCCc1nc(-c2nc(C(=O)NCCC[S+](C)C)cs2)cs1)[C@@H](C)O)C(O[C@@H]1O[C@@H](CO)[C@@H](O)[C@H](O)[C@@H]1O[C@H]1O[C@H](CO)[C@@H](O)[C@H](OC(N)=O)[C@@H]1O)c1cnc[nH]1 | PBLC | - | >0.3 µg/mL |
| Nc1nc2c(ncn2CCC(CO)CO)c(=O)[nH]1 | P3HR-1 | - | >100 µg/mL |
| CC1(C)CC[C@]2(C(=O)O)CC[C@]3(C)C(=CC[C@@H]4[C@@]5(C)C[C@@H](O)[C@H](O)[C@@](C)(CO)[C@@H]5CC[C@]43C)[C@@H]2C1 | RAJI | ATP | >26 µM |
| COc1ccc(CCNC(=S)Nc2ccc(Br)cn2)cc1OC | HUMAN SPERM | - | >500 µM |
| CCCN1[Se]c2ccccc2NC1=S | A549 | MTT | 117 µg/mL |
| CC1(C)OCC(CCCCN2C[C@H](O)[C@@H](O)[C@H](O)[C@H]2CO)O1 | HepG2 2.2.15 | - | >1000 µM |
| Cc1cn([C@H]2C[C@H](N=[N+]=[N-])[C@@H](COP(=O)(O)OCc3ccc(C(=O)OC(C)C)cc3)O2)c(=O)[nH]c1=O | JM | MTT | 10 µM |
| Nc1ncnc2c1ncn2CCOCP(=O)(O)O | P3HR-1 | - | 27 µg/mL |
| Nc1ncnc2c1ncn2[C@@H]1O[C@H](CO)C[C@H]1O | PRK/E6SM | - | 100 µg/mL |
| Nc1ccn([C@H]2O[C@@H](CO)C[C@H]2F)c(=O)n1 | PBM | - | >100 µM |
| COc1cc2c(c3oc(=O)c4c(c13)CCC4=O)[C@H]1C[C@H](OC(C)=O)O[C@H]1O2 | L-02 | - | 6.4 µM |
| OC[C@H]1O[C@@H](n2c(Cl)nc3cc4cc(Cl)c(Cl)cc4nc32)[C@H](O)[C@@H]1O | KB | - | 8 µM |
| O=C1NCc2c1c1c3ccccc3[nH]c1c1[nH]c3ccccc3c21 | Akata | - | 3.14 µM |
| CC[C@H](CC[C@@H](C)[C@H]1CC[C@H]2[C@@H]3CC=C4C[C@@H](O)CC[C@]4(C)[C@H]3CC[C@]12C)C(C)C | L6 cells | MTT | 6.2 µM |
| COC(=O)c1ccc(COP(=O)(OCc2ccc(C(=O)OC)cc2)OC[C@H]2O[C@@H](n3cc(C)c(=O)[nH]c3=O)C[C@@H]2N=[N+]=[N-])cc1 | JM | MTT | 150 µM |
| CCCCCCCCCCCCCCCO[P@]1(=O)OC[C@@H]2COC(=O)C2=C(CCCC)O1 | HEK293T | resazurin | >50 µM |
| Nc1ncnc2c1ncn2[C@H]1O[C@@H](CO)C[C@H]1F | PBM | - | >100 µM |
| COC(=O)N[C@H](C(=O)N1CCC[C@H]1c1nc2ccc(-c3csc4c(-c5ccc(-c6cnc([C@@H]7CCCN7C(=O)[C@H](NC(=O)OC)c7ccccc7)[nH]6)cc5)csc34)cc2[nH]1)C(C)C | CCRF-CEM | ATP | >50 µM |
| O=c1[nH]c(=O)n([C@H]2C[C@H](O)[C@@H](CO)O2)cc1I | HSB-2 | - | >1500 µM |
| CC/C=C\C[C@@H]1[C@@H](CC(=O)OC)CC[C@@H]1O | BJ | ATP | >26 µM |
| CCCCCCCCCCCCCCCCOC[C@@H](O)COP(=O)(O)C(=O)O | MRC-5 | - | 320–1000 µM |
| OC[C@H]1O[C@@H](n2c(NC3CC3)nc3cc4cc(Cl)c(Cl)cc4cc32)[C@H](O)[C@@H]1O | KB | - | 55 µM |
| S=C(NCCC1=CCCCC1)Nc1ccc(Br)cn1 | Human vaginal epithelial | - | >1000 µM |
| Nc1nc2c(ncn2C[C@H](CO)OCP(=O)(O)O)c(=O)[nH]1 | HSB-2 | - | 87 µM |
| Nc1nc2c(ncn2COCCO)c(=O)[nH]1 | E6SM | - | >400 µg/mL |
| C(=Nc1ccccc1[Se][Se]c1ccccc1N=Cc1ccccc1)c1ccccc1 | A549 | MTT | 10 µg/mL |
| COCC(=O)NC(CCSC[C@H]1O[C@@H](n2ccc3c(N)ncnc32)[C@H](O)[C@@H]1O)C(=O)O | PRK/E6SM | - | 400 µg/mL |
| CC(C)[C@H](C)/C=C/C(C)[C@H]1CCC2C3=C(CC[C@@]21C)[C@@]1(C)CCC(=O)C=C1C=C3 | L6 | MTT | 27 µM |
| OC[C@H]1O[C@@H](n2cnc3cc(Cl)c(Cl)cc32)[C@H](O)[C@@H]1O | KB | - | 36 µM |
| Cc1cn([C@H]2C[C@H](N=[N+]=[N-])[C@@H](CO)O2)c(=O)[nH]c1=O | MT4-GFP | ATP / luminescence | >8.4 µM |
| CCCCCCCCCCCCCCCCCCSC[C@H](O)COP(=O)(O)C(=O)O | MRC-5 | - | 95 µM |
| CC/C=C\C[C@H]1C(=O)CC[C@@H]1CC(=O)O | BJ | ATP | >26 µM |
| O=C(Nc1ccc(Br)cc1C(F)(F)F)NC1N=C(c2ccccc2)c2ccccc2NC1=O | HEP-2 | - | 6 µM |
| CCCCC1C(=O)N(CC2CCN(CC(F)F)CC2)CCC12CCN(C1(C)CCN(C(=O)c3c(C)ncnc3C)CC1)CC2 | CEM-R5 | - | 0.07 µM |
| COc1ccc(C(=O)NC2N=C(c3ccccc3)c3ccccc3NC2=O)c(OC)c1 | HEP-2 | - | <0.3 µM |
| Nc1ccn([C@@H]2CO[C@H](CO)S2)c(=O)n1 | CBMC | - | 105 µM |
| COc1cc(C(=O)NC2N=C(c3ccccc3)c3ccccc3NC2=O)ccc1[N+](=O)[O-] | HEP-2 | - | 1.5 µM |
| CC(C)CN(C[C@@H](O)[C@H](Cc1ccc(F)cc1)NC(=O)O[C@H]1CCO[C@H]2OCC[C@H]21)S(=O)(=O)c1ccc2nc(NC(C)C)sc2c1 | TM-31 | MTT | >100 µM |
| OC1C(O)C(O)C(O)C(O)C1O | BJ | ATP | >26 µM |
| Nc1nc(=O)n([C@H]2O[C@@H](CO)C[C@H]2F)cc1F | PBM | - | >100 µM |
| COc1cc2c(c3oc(=O)c4c(c13)CCC4=O)C1C=COC1O2 | L-02 | - | 3.7 µM |

Repeating the final 6 entries:

{"SMILES": "Nc1ccn([C@@H]2CO[C@H](CO)S2)c(=O)n1", "cell line": "CBMC", "value": "105 µM"}
{"SMILES": "COc1cc(C(=O)NC2N=C(c3ccccc3)c3ccccc3NC2=O)ccc1[N+](=O)[O-]", "cell line": "HEP-2", "value": "1.5 µM"}
{"SMILES": "CC(C)CN(C[C@@H](O)[C@H](Cc1ccc(F)cc1)NC(=O)O[C@H]1CCO[C@H]2OCC[C@H]21)S(=O)(=O)c1ccc2nc(NC(C)C)sc2c1", "cell line": "TM-31", "method": "MTT", "value": ">100 µM"}
{"SMILES": "OC1C(O)C(O)C(O)C(O)C1O", "cell line": "BJ", "method": "ATP", "value": ">26 µM"}
{"SMILES": "Nc1nc(=O)n([C@H]2O[C@@H](CO)C[C@H]2F)cc1F", "cell line": "PBM", "value": ">100 µM"}
{"SMILES": "COc1cc2c(c3oc(=O)c4c(c13)CCC4=O)C1C=COC1O2", "cell line": "L-02", "value": "3.7 µM"}

Blank or dashed fields: not listed here. CCn is the concentration with n% toxicity to the cells. Two numbers with a dash give a range or band.